## Share of PSTVd loop 15 variants by leaf site

The pool varies loop 15 of the PSTVd intermediate strain in the pattern GGAAACCGNNNNNNC; wild type is GGAAACCGCUACUAC (upper and lower strand joined, each 5' to 3', the first 7 letters being the upper strand, closing pairs included).

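A pool of all variants was put on leaves of three Nicotiana benthamiana plants. Progeny were sequenced from the inoculated region (day 5), the margin of the inoculated leaf (day 10) and systemic leaves (day 12).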

Numbers give reads per thousand; 0 = not seen among the reads, higher = more abundant. Each value is the mean of three plants. "Pool" is the share in the plasmid pool used as inoculum, on the same scale. The inoculated region was read from the minus strand, the other sites from the plus strand. IR is the inoculated region, LM the leaf margin, Sys the systemic leaves. For reference, wild type rose from 33.9 per thousand in the pool to 202, 200, 159 (inoculated region), 724, 746, 710 (leaf margin) and 856, 883, 880 (systemic leaves). With 43,870-66,106 reads a sample, very low values are single reads. The authors trace changes outside the varied positions to PCR and sequencing errors or to mutation in the plant; presence does not show that a variant is infectious alone.

sequence	pool	IR	LM	Sys
GGAAACCGUCCGUAC	0.224	0.362	0.144	0.0565
GGAAACCGGAUGAUC	0.448	0.0660	0.00668	0
GGAAACCGAAUAAUC	0.272	0.0759	0.0175	0
GGAAACCGUGCCCAC	0.128	0.124	0.0249	0
GGAAACCGGCUCAGC	0.192	0.101	0.0202	0
GGAAACCGCUCCAUC	0.160	0.0950	0.0141	0.00537
GGAAACCGAUUCGUC	0.304	0.115	0.0175	0.0107
GGAAACCGUACUCAC	0.176	0.310	0.0800	0.0161
GGAAACCGCGUCUUC	0.256	0.108	0.0262	0.00760
GGAAACCGUUUAAAC	0.224	0.0452	0.0134	0
GGAAACCGCAGUCGC	0.208	0.0962	0.0275	0
GGAAACCGGGGGAUC	0.288	0.0615	0	0.00537
GGAAACCGUAUUCGC	0.256	0.204	0.0208	0
GGAAACCGGGUGCGC	0.256	0.0999	0	0
GGAAACCGCCACAUC	0.352	0.104	0.0141	0
GGAAACCGGGUCGUC	0.240	0.160	0.00742	0
GGAAACCGCGGGUAC	0.256	0.289	0.111	0.0815
GGAAACCGACCUUGC	0.160	0.0729	0.0134	0
GGAAACCGAGAUCAC	0.224	0.289	0.112	0
GGAAACCGGAUGCAC	0.336	0.114	0.00742	0
GGAAACCGGCAAUGC	0.160	0.124	0.0195	0
GGAAACCGCACGUCC	0.112	0.0572	0.0141	0
GGAAACCGGUCAUGC	0.256	0.109	0.00742	0
GGAAACCGGAUUAAC	0.240	0.107	0.0121	0.00537
GGAAACCGCACCUAC	0.224	0.337	0.136	0.00537
GGAAACCGAAGACAC	0.304	0.0969	0	0
GGAAACCGUCAAUAC	0.240	0.291	0.108	0.0287
GGAAACCGUGCUGUC	0.272	0.0774	0.0182	0
GGAAACCGGGGUUGC	0.224	0.115	0.0108	0
GGAAACCGCUCCCCC	0.160	0.0946	0.0121	0
GGAAACCGGCUAGGC	0.256	0.0786	0.0208	0
GGAAACCGUGCCGAC	0.256	0.130	0.0128	0.0155
GGAAACCGAGGUAAC	0.224	0.0796	0	0
GGAAACCGCUUCCAC	0.144	0.114	0.00668	0
GGAAACCGCGAUUUC	0.304	0.322	0.160	0.0433
GGAAACCGCAGUACC	0.224	0.0904	0	0
GGAAACCGGGAUACC	0.208	0.169	0.00668	0.0107
GGAAACCGUACAUAC	0.240	0.246	0.116	0.0594
GGAAACCGCGGCUGC	0.304	0.0773	0.00668	0.00537
GGAAACCGCCAAAUC	0.288	0.352	0.0613	0.0161
GGAAACCGCUUUCGC	0.192	0.127	0.0200	0
GGAAACCGACGACCC	0.208	0.0821	0	0
GGAAACCGUCUGUCC	0.400	0.121	0.0195	0
GGAAACCGCGGUAAC	0.192	0.0823	0.0121	0.0107
GGAAACCGUUAUACC	0.304	0.318	0.137	0.0215
GGAAACCGUCCGAAC	0.112	0.357	0.114	0.0161
GGAAACCGCAACUCC	0.192	0.101	0.0141	0
GGAAACCGACGUAGC	0.240	0.0957	0	0
GGAAACCGCACAGUC	0.192	0.0822	0.0200	0
GGAAACCGAACCCGC	0.112	0.0677	0.0128	0
GGAAACCGACGGCUC	0.240	0.168	0.0262	0
GGAAACCGUAAUGAC	0.208	0.0965	0	0
GGAAACCGGUGUCCC	0.288	0.0731	0.0195	0
GGAAACCGUUUAAGC	0.384	0.0882	0.0249	0
GGAAACCGAAGGGAC	0.192	0.108	0	0.00760
GGAAACCGCCGGACC	0.208	0.0796	0	0
GGAAACCGUACAAGC	0.256	0.125	0.0121	0.00537
GGAAACCGUAUUGCC	0.208	0.109	0	0.00537
GGAAACCGGAAGUAC	0.320	0.390	0.131	0.0609
GGAAACCGAUUACAC	0.272	0.0566	0	0
GGAAACCGGUCAACC	0.144	0.0924	0.0228	0

The opening 3 entries, copied out:

GGAAACCGUCCGUAC (pool 0.224) gave IR 0.362; LM 0.144; Sys 0.0565.
GGAAACCGGAUGAUC (pool 0.448) gave IR 0.0660; LM 0.00668; Sys 0.
GGAAACCGAAUAAUC (pool 0.272) gave IR 0.0759; LM 0.0175; Sys 0.

From the data files of Wu et al. 2024, doi:10.1371/journal.ppat.1012142.